Square brackets hold non-standard residues; d marks the D form. Peptide text beside a SMILES is read from it. Gly(N(CH2)2(3-indolyl)) = O=C(O)CNCCc1c[nH]c2ccccc12; Nspe = C[C@H](NCC(=O)O)c1ccccc1; Nlys = NCCCCNCC(=O)O

This series can be described thus: SAXS of peptoid interaction with lipid vesicles. The following applies: liposomes with 25% negatively charged lipids, 37 °C, 33.0 ± 1 Å without peptoid.

As for `C[C@@H](c1ccccc1)N(CC(=O)N(CCCCN)CC(=O)N(CC(=O)N(CC(=O)N(CCCCN)CC(=O)N(CC(=O)N(CC(=O)N(CCCCN)CC(=O)N(CCc1c[nH]c2ccccc12)CC(=O)N(CCc1c[nH]c2ccccc12)CC(N)=O)[C@@H](C)c1ccccc1)[C@@H](C)c1ccccc1)[C@@H](C)c1ccccc1)[C@@H](C)c1ccccc1)C(=O)CN(C(=O)CNCCCCN)[C@@H](C)c1ccccc1` [peptoid 11] (H-[Nlys][Nspe][Nspe][Nlys][Nspe][Nspe][Nlys][Nspe][Nspe][Nlys][Gly(N(CH2)2(3-indolyl))][Gly(N(CH2)2(3-indolyl))]-NH2), the “membrane thickness after addition of peptoid” value came to 30 ± 1 Å.
Next, `C[C@@H](c1ccccc1)N(CC(=O)N(CCCCN)CC(=O)N(CCc1c[nH]c2ccccc12)CC(=O)N(CCc1c[nH]c2ccccc12)CC(N)=O)C(=O)CN(CCCCN)C(=O)CN(CCCCN)C(=O)CN(C(=O)CN(C(=O)CN(CCCCN)C(=O)CN(C(=O)CN(C(=O)CNCCCCN)[C@@H](C)c1ccccc1)[C@@H](C)c1ccccc1)[C@@H](C)c1ccccc1)[C@@H](C)c1ccccc1` [peptoid 29] (H-[Nlys][Nspe][Nspe][Nlys][Nspe][Nspe][Nlys][Nlys][Nspe][Nlys][Gly(N(CH2)2(3-indolyl))][Gly(N(CH2)2(3-indolyl))]-NH2): 29 ± 1 Å.

These data come from paper PMC10460844, “Real‐Time Monitoring of Multitarget Antimicrobial Mechanisms of Peptoids Using Label‐Free Imaging with Optical Diffraction Tomography” (Advanced Science, 2023).
